Library screen at single concentrations

Each number is a percent effect as filed. The record does not define 0% and 100%; most values in the screen are far below 50% and negative numbers occur (in some assays of this library far below -100). The entries come from a sample that favours strong results. Two or more numbers in one place are separate tests of the same structure; such repeats can differ widely.

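Phenotypic screen: M. tuberculosis growth, glucose 7H9 medium, 3 days; the read-out is not stated. Concentration: 50 µM. Higher reads as more growth inhibition (inferred: compounds with an IC50 in retests scored well above the rest). Size under these conditions: about 69,000 compounds, about 760 of them at 50% or above in at least one test.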

CC(=O)N1CCCC(c2cnc(-c3c(C)nn(C)c3C)cn2)C1 (configuration not stated) gave 64.01%.
Cc1noc(NC(=O)c2ccc(F)cc2)n1 gave 36.12%.
Cc1cc(C)n(-c2cncc(NCCNC(=O)C3CCCC3)n2)n1 gave -17.15%.
COc1ccc(-c2noc(C3CC(C(C)C)=NO3)n2)cc1 (configuration not stated) gave 39.44%.
Cc1ncoc1C(=O)N1CCOC(CCCC(C)C)C1 (configuration not stated) gave 10.76% & 2.226%.
CC(C)c1nc(S(=O)(=O)N2CCSc3ccccc32)c[nH]1 gave -5.226% & -2.149%.
CCn1nc(C)c2nc(C)nc(NCCc3ccccc3)c21 gave 46.33% & 6.519%.
CC(C)Cc1cc(NC(=O)c2ccc[nH]2)n(C)n1 gave 1.639%.
[H][C@]12CC[C@]([H])(CN(C(=O)CCc3n[nH]c4c3CCCC4)C1)N(CC1CC1)C2 gave 52.33%.
Cc1cccnc1N1CCN(C(=O)C(C)n2ccnc2C(C)C)CC1 (configuration not stated) gave -0.07039% & -25.8%.
CCS(=O)(=O)N1CCCCC1c1nc(C(C)C)no1 (configuration not stated) gave 80.76%.
Cc1cc(=O)[nH]c(-n2nc(C)c(CCC(=O)Nc3nc(C)cs3)c2C)n1 gave 2.564%.
CC(=O)NCCNC(=O)NCCCc1cccc(F)c1 gave 11.8%.
Cc1nnc(-c2cccc(N3CCC(NC4CCSC4)CC3)c2)s1 (configuration not stated) gave 4.468% & 4.825%.
[H][C@]12CC[C@]([H])(CN(Cc3cscn3)C1)N(Cc1cc(CC(C)C)[nH]n1)C2 gave 50.1%.
COCc1nc(N(C)C)ncc1C(=O)NC(C)C gave 7.835%.
NC1CCCCN(Cc2cc(-c3ccccc3OC(F)(F)F)no2)C1 (configuration not stated) gave 50.09%.
COc1ccc(CNC(Cc2ccsc2)c2ncccc2C)cc1OC (configuration not stated) gave 21.16%.
CCCC(C)CS(=O)(=O)NCc1cccnc1N(C)C (configuration not stated) gave -0.00452%.
NC(=O)C1=NC2=NS(=O)(=O)c3ccccc3N2N1Cc1ccccc1Cl gave -20.59%.
Cc1cc(C)n(-c2ccc(NCCNS(=O)(=O)c3ccccc3)nn2)n1 gave -1.012%.
O=C(c1cc(Br)c[nH]1)N1CCN(Cc2ccco2)CC1 gave 0.7697%.
Cc1ccccc1-c1noc(C2CC(C(C)C)=NO2)n1 (configuration not stated) gave 41.66%.
CC(=O)N1CCC(C(=O)Nc2nc(C3CC3)cs2)CC1 gave -42.59%.
Cl.Fc1ccc(-c2cnc(C3CCCN3)cn2)cc1 (configuration not stated) gave 18.3%.
Br.CCOc1ccc(N(CC(=O)c2ccccc2)C2=NCCCCC2)cc1 gave 84.34% & 80.15%.
O=C(NCc1ccc(-n2cncn2)nc1)c1cc[nH]n1 gave -20.34%.
N#CCCN(C(=O)CN1CCCC1Cc1ccccc1)c1ccccc1 (configuration not stated) gave 36.86%.
COc1ccccc1-c1ncc(CN2C[C@@H](N(C)C)[C@H](C(C)C)C2)s1 gave 73.71%.
CC(Cn1cccn1)NCc1csc(-c2ccc(F)cc2)n1 (configuration not stated) gave 36.71%.
Cc1nc(N2CCCC2)nc2c1CCN(Cc1ccsc1)CC2.O=C(O)C(F)(F)F gave 85.4% & 81.34%.
CC(C)c1ccc(OCn2ccc(C(=O)N3CCCC3)n2)cc1 gave 54.95%.
Cc1cc(C(=O)NCc2ccnc(N(C)C)c2)c(C)o1 gave -18.17%.
CCOc1ccccc1CN1CCc2nc3ccsc3c(=O)n2CC1.Cl gave 27.94%.
CC(C)Oc1ccc(CNC(=O)C2CCC(=O)N2)cn1 (configuration not stated) gave -59.12%.
Cc1nc(N2CCCC2)nc2c1CCN(Cc1ccoc1)CC2.O=C(O)C(F)(F)F gave 76.26% & 65.22%.
[H][C@]12CO[C@H](CNS(C)(=O)=O)[C@@]1([H])CCN(C(=O)c1cnoc1C)C2 gave -16.99% & -4.298%.
CCOc1cccc(CSC(C)c2nc(C)no2)n1 (configuration not stated) gave 18.78%.
O=C1CNc2ncnc(N3CCN(c4ccccc4F)CC3)c2N1 gave 96.61%.
CCc1c(C)sc2ncnc(N3C[C@H](O)[C@@H](N4CCCC4)C3)c12 gave -11.19%.
COc1ccccc1OC1CN(C(=O)c2c(C)nc3ccc(C)cn23)C1 gave 57.77%.
Cc1ccc(NC2CCN(C(=O)CCc3ccco3)CC2)nn1 gave 4.112%.
CNCCCNc1nc(C2CCCC2)nc2c1cnn2C gave -3.649%.
COc1cccc(OCCNS(=O)(=O)Cc2ccccc2)c1 gave 8.286%.
O=C1CCN(C(=O)CCc2ccc(Cl)cc2Cl)CCN1 gave -8.068%.
O=C(c1nnn(-c2ccc(C(F)(F)F)cc2)n1)N1CCC(O)CC1 gave 42.68% & 25.65%.
COc1ccc(CN(C(=O)C2CCCS2)c2ccncc2)cc1 (configuration not stated) gave 80.28% & 48.56%.
Cc1sc(Br)cc1S(=O)(=O)NCc1ccccn1 gave 50.74%.
Fc1cc(F)cc(CN2CCC(c3cc4ncccc4cn3)CC2)c1 gave 9.196%.
CC(C)C(=O)NCc1ccnc(Oc2ccc(F)cc2)c1 gave 25.02% & 6.553%.
O=C(CCc1ccncc1)N1CCc2cc(Cl)cc(Cl)c2C1 gave 51.04%.
Cc1nc(C2CCCN2CCS(C)(=O)=O)no1 (configuration not stated) gave -18.73%.
O=C(NCCSC1CCCC1)c1cc(Cl)ccn1 gave -22.46%.
O=C(CCN1CCCN(c2nccs2)CC1)Nc1ccccc1 gave -28.67%.

Data taken from ChEMBL document CHEMBL3988442, “University of Dundee, Small-Polar-MMV Screening Library” (2021).